Laboratory results taken from patent publication US20220356230A1.
“And” between values parts separate entries of the source, which are not always exact repeats. Equal values may be shown once. Read-outs that look alike come from different tables or passages of the source.

Columns and labels:
Details in all cases: remark: other sources report otherwise
[1] = molecular target: SARS-CoV-2 Spike Protein (RBD)([…]).mmH (SARS-CoV-2)
[2] = molecular target: Bt-SARS-CoV-2 Spike Protein (RBD)([…]).mFc (SARS-CoV-2); experiment: Luminex bead assay, antibody supernatant, biotinylated antigen on microspheres
[3] = molecular target: T1, SARS-COV-2-S RBD extracellular domain expressed with a C-terminal myc-myc-hexahistidine (SARS-COV-2 RBD-MMH) (SARS-CoV-2)
[4] = molecular target: T1, SARS-COV-2-S RBD extracellular domain …; remark: listed apart in the source

Binder	Binding signal (MFI) [1]	Binding signal (MFI) [2]	t½ [3]	t½ [4]
mAb10984 (antibody) heavy: EVQLVESGGGLVQPGGSLRLSCAASGLTVNRNYMSWVRQAPGKGLEWVSLIYSGGSTYYADSVKGRFTISRDNSKNTLYLQMNSLRLEDTAVYYCARGELGIPYGMDVWGQGTTVTVSSASTKGPSVFPLAPSSKSTSGGTAALGCLVKDYFPEPVTVSWNSGALTSGVHTFPAVLQSSGLYSLSSVVTVPSSSLGTQTYICNVNHKPSNTKVDKKV[human IgG1 Fc left out here] light: QSVLTQPPSVSAAPGQKVTISCSGSSSNIGNNYVSWYQQLPGTAPKLLIYDNNKRPSGIPDRFSGSKSGTSATLGITGLQTGDEADYYCGTWDSSLSAGVFGGGTKLTVLGQPKAAPSVTLFPPSSEELQANKATLVCLISDFYPGAVTVAWKADSSPVKAGVETTTPSKQSNNKYAASSYLSLTPEQWKSHRSYSCQVTHEGSTVEKTVAPTECS	27900 MFI and 26200 MFI	17100 MFI		
mAb10921 (antibody) heavy: EVQLVESGGGLVQPGGSLRLSCAASGITVSSNYMSWVRQAPGKGLEWVSVIYSGGSTFYADSVKGRFTISRHNSKNTLYLQMNSLRAEDTAVYYCARERNFDAFDIWGQGTMVTVSSASTKGPSVFPLAPSSKSTSGGTAALGCLVKDYFPEPVTVSWNSGALTSGVHTFPAVLQSSGLYSLSSVVTVPSSSLGTQTYICNVNHKPSNTKVDKKV[human IgG1 Fc left out here] light: DIQMTQSPSSVSASVGDRVTITCRASQGISSWLAWYQQKPGKAPKLLIYAASSLQSGVPSRFSGSGSGTDFTLTISSLQPEDFATYYCQQANSFPLFTFGPGTKVDIKRTVAAPSVFIFPPSDEQLKSGTASVVCLLNNFYPREAKVQWKVDNALQSGNSQESVTEQDSKDSTYSLSSTLTLSKADYEKHKVYACEVTHQGLSSPVTKSFNRGEC	25000 MFI and 23600 MFI	11300 MFI		
mAb10982 (antibody) heavy: EVQLVESGGGLVQPGGSLRLSCAASGLTVSSNYMSWVRQAPGKGLEWVSVIYSGGTTYYADSVKGRFTISRHNSKNTLSLQMNSLRAEDTAVYYCARGEGANYYGMDVWGQGTTVTVSSASTKGPSVFPLAPSSKSTSGGTAALGCLVKDYFPEPVTVSWNSGALTSGVHTFPAVLQSSGLYSLSSVVTVPSSSLGTQTYICNVNHKPSNTKVDKKV[human IgG1 Fc left out here] light: QSVLTQPPSVSGAPGQRVTISCTGSSSNIGTGYDVHWYQQLPGTAPKLLIYGNSNRPSGVPDRFSGSKSGTSASLAITGLQAEDEADYYCQSYDSSLSGYVVFGGGTKLTVLGQPKAAPSVTLFPPSSEELQANKATLVCLISDFYPGAVTVAWKADSSPVKAGVETTTPSKQSNNKYAASSYLSLTPEQWKSHRSYSCQVTHEGSTVEKTVAPTECS	24300 MFI and 22200 MFI	12300 MFI		
mAb11004 (antibody) heavy: QVQLVESGGGVVQPGRSLRLSCVASGFTFSIYGMDWVRQAPGKGLEWVAVISYDGSNKYYADSVKGRFTISRDNSKNTLYLQMNSLRPEDTAVYYCAKDREAAADAFDIWGQGTMVTVSSASTKGPSVFPLAPSSKSTSGGTAALGCLVKDYFPEPVTVSWNSGALTSGVHTFPAVLQSSGLYSLSSVVTVPSSSLGTQTYICNVNHKPSNTKVDKKV[human IgG1 Fc left out here] light: DIQMTQSPSSVSASVGDRVTITCRASQGISSWLAWYQQKPGKAPKLLIYAASSLHSGVPSRFSGSGSGTDFTLTISSLQPEDFATYYCQQANSFRLTFGGGTKVEIKRTVAAPSVFIFPPSDEQLKSGTASVVCLLNNFYPREAKVQWKVDNALQSGNSQESVTEQDSKDSTYSLSSTLTLSKADYEKHKVYACEVTHQGLSSPVTKSFNRGEC			48 s and 36 s	48 s and 24 s
mAb11006 (antibody) heavy: EVQLVESGGGLVQPGGSLRLSCAASGFIVSRNYMSWVRQAPGKGLEWVSVIYSGGSTFYADSVKGRFTISRHNSKNTLYLQMNSLKAEDTAVYYCARELRGYFDYWGQGTLVTVSSASTKGPSVFPLAPSSKSTSGGTAALGCLVKDYFPEPVTVSWNSGALTSGVHTFPAVLQSSGLYSLSSVVTVPSSSLGTQTYICNVNHKPSNTKVDKKV[human IgG1 Fc left out here] light: DIQLTQSPSFLSASVGDRVTITCWASQGISSYLAWYQQKPGKAPKLLIYAASTLQSGVPSRFSGSGSGTEFTLTISSLQPEDFATYYCQLLNSYPYTFGQGTKLEIKRTVAAPSVFIFPPSDEQLKSGTASVVCLLNNFYPREAKVQWKVDNALQSGNSQESVTEQDSKDSTYSLSSTLTLSKADYEKHKVYACEVTHQGLSSPVTKSFNRGEC			474 s and 348 s	474 s and 330 s
mAb11008 (antibody) heavy: EVQLVESGGGLVQPGGSLRLSCAASGFTVSSNYMTWVRQAPGKGLEWVSVIYSGGSTFYADSVKGRFTISRHNSENTLYLQMNSLRAEDTAVYYCARDLAAAGTDYWGQGALVTVSSASTKGPSVFPLAPSSKSTSGGTAALGCLVKDYFPEPVTVSWNSGALTSGVHTFPAVLQSSGLYSLSSVVTVPSSSLGTQTYICNVNHKPSNTKVDKKV[human IgG1 Fc left out here] light: DIQLTQSPSFLSASVGDRVTITCWASQGISSYLAWYQQKPGKAPKLLIYAASTLQSGVPSRFSGSGSGTEFTLTISSLQPDDFATYYCQHLNSYLYTFGQGTKLEIKRTVAAPSVFIFPPSDEQLKSGTASVVCLLNNFYPREAKVQWKVDNALQSGNSQESVTEQDSKDSTYSLSSTLTLSKADYEKHKVYACEVTHQGLSSPVTKSFNRGEC			522 s and 540 s	522 s and 630 s
mAb10915 (antibody) heavy: EVQLVESGGGLVQPGGSLRLSCAASGFTVSSNYMNWVRQAPGKGLEWVSVIYSGGSTFYADSVKGRFTISRHNSKNTLYLQMNSLRPEDTAVYYCARDLGGYFDYWGQGTLVTVSSASTKGPSVFPLAPSSKSTSGGTAALGCLVKDYFPEPVTVSWNSGALTSGVHTFPAVLQSSGLYSLSSVVTVPSSSLGTQTYICNVNHKPSNTKVDKKV[human IgG1 Fc left out here] light: [about 100 residues left out here][about 120 residues left out here]	31800 MFI and 30300 MFI	20100 MFI		
mAb10998 (antibody) heavy: EVQLVESGGGLVHPGGSLRLSCAASGLTVSSNYMSWVRQAPGKGLEWVSVIYSGGSTYYADSVKGRFTISRHNSKNTLFLQMNSLRAEDTAVYYCARDRPITGTTLDVWGQGTTVTVSSASTKGPSVFPLAPSSKSTSGGTAALGCLVKDYFPEPVTVSWNSGALTSGVHTFPAVLQSSGLYSLSSVVTVPSSSLGTQTYICNVNHKPSNTKVDKKV[human IgG1 Fc left out here] light: DIQMTQSPSSLFASVGDRVTITCRASQSISSYLNWYQQKPGKAPKLLIYAASSLQSGVPSRFSGSGSGTDFTLTISSLQPEDFAFYYCQQTYSTPPITFGQGTRLEIKRTVAAPSVFIFPPSDEQLKSGTASVVCLLNNFYPREAKVQWKVDNALQSGNSQESVTEQDSKDSTYSLSSTLTLSKADYEKHKVYACEVTHQGLSSPVTKSFNRGEC			24 s	24 s and 30 s
mAb10935 (antibody) heavy: EVQLVESGGGLVQPGGSLRLSCAASGFTVSSNYMSWVRQAPGKGLEWVSLIYSGGSTYYADSVKGRFTISRHNSKNTLYLQMNSLRSEDTAVYYCARVPLGDYYYGMDVWGQGTTVTVSSASTKGPSVFPLAPSSKSTSGGTAALGCLVKDYFPEPVTVSWNSGALTSGVHTFPAVLQSSGLYSLSSVVTVPSSSLGTQTYICNVNHKPSNTKVDKKV[human IgG1 Fc left out here] light: DIQMTQSPSSLSASVGDRVTITCQASQDINKYLNWYQQKPGKAPKLLIYDASNLETGVPSRFSGSGSGTDFTFTISSLQPEDIATYYCQQSDNLPLTFGGGTKVEIKRTVAAPSVFIFPPSDEQLKSGTASVVCLLNNFYPREAKVQWKVDNALQSGNSQESVTEQDSKDSTYSLSSTLTLSKADYEKHKVYACEVTHQGLSSPVTKSFNRGEC	34900 MFI and 32600 MFI	19300 MFI		24 s and 54 s
mAb10938 (antibody) heavy: EVQLVESGGGLVQPGGSLRLSCAVSGFTVSSNYMSWVRQAPGKGLEWVSLIYSGGSTFYADSVKGRFTISRHNSKNTLYLQMNSLRAEDTAVYYCAREGGYSYDYNYWGQGTLVTVSSASTKGPSVFPLAPSSKSTSGGTAALGCLVKDYFPEPVTVSWNSGALTSGVHTFPAVLQSSGLYSLSSVVTVPSSSLGTQTYICNVNHKPSNTKVDKKV[human IgG1 Fc left out here] light: DIQMTQSPSSLSASVGDRVTITCQASQDIRNYLNWYQQKPGKAPKLLIYDASNLETGVPSRFSGIGSGTDFTFTISSLQPEDIATYYCQQYDNLPITFGQGTRLEIKRTVAAPSVFIFPPSDEQLKSGTASVVCLLNNFYPREAKVQWKVDNALQSGNSQESVTEQDSKDSTYSLSSTLTLSKADYEKHKVYACEVTHQGLSSPVTKSFNRGEC	29400 MFI and 27100 MFI	17200 MFI		
mAb10934 (antibody) heavy: EVQLVESGGGLVKPGGSLRLSCAASGITFSNAWMSWVRQAPGKGLEWVGRIKSKTDGGTTDYAAPVKGRFTISRDDSKNTLYLQMNSLKTEDTAVYYCTTARWDWYFDLWGRGTLVTVSSASTKGPSVFPLAPSSKSTSGGTAALGCLVKDYFPEPVTVSWNSGALTSGVHTFPAVLQSSGLYSLSSVVTVPSSSLGTQTYICNVNHKPSNTKVDKKV[human IgG1 Fc left out here] light: DIQMTQSPSSLSASVGDRVTITCQASQDIWNYINWYQQKPGKAPKLLIYDASNLKTGVPSRFSGSGSGTDFTFTISSLQPEDIATYYCQQHDDLPPTFGQGTKVEIKRTVAAPSVFIFPPSDEQLKSGTASVVCLLNNFYPREAKVQWKVDNALQSGNSQESVTEQDSKDSTYSLSSTLTLSKADYEKHKVYACEVTHQGLSSPVTKSFNRGEC	33800 MFI and 32600 MFI			
mAb10930 (antibody) heavy: EVQLVESGGGLVQPGRSLRLSCAASGFTFDDYAMYWVRQAPGKGLEWVSGISWNSGSIGYADSVKGRFTISRDNAKNSLYLQMNSLRAADTALYYCAKDKDWNSRGYYYYGMDVWGQGTTVTVSSASTKGPSVFPLAPSSKSTSGGTAALGCLVKDYFPEPVTVSWNSGALTSGVHTFPAVLQSSGLYSLSSVVTVPSSSLGTQTYICNVNHKPSNTKVDKKV[human IgG1 Fc left out here] light: [about 100 residues left out here][about 100 residues left out here]	25100 MFI	16600 MFI		60 s
